Molecular target: SARS-CoV-2 Omicron subvariant BA.2 RBD (SARS-CoV-2)
Test: ELISA [D]

B1: ADG-2 (antibody, V domains shown)
VH: EVQLVESGGGLVKPGGSLRLSCAASGFTFSSYYMNWVRQAPGKGLEWVSSISEDGYSTYYPDSLKGRFTISRDSAKNSLYLQMNSLRADDTAVYYCARDFSGHTAWAGTGFEYWGQGTLVTVSS
VL: QSVLTQPPSVSGAPGQRITISCTGSSSNIGAGYDVHWYQQLPGTAPKLLIYGSSSRNSGVPDRFSGSKSGTSASLAITGLQAEDEADYYCQSYDSSLSVLYTFGTGTKVTVL
  binding result: no binding

From patent US20240336672A1 (INSTITUT PASTEUR, published 2024)
